Chains of the proteins cited; added tags and fusions are not shown. Residues count along the entry.
UniProt O92972, 2420-3010 limits assumed: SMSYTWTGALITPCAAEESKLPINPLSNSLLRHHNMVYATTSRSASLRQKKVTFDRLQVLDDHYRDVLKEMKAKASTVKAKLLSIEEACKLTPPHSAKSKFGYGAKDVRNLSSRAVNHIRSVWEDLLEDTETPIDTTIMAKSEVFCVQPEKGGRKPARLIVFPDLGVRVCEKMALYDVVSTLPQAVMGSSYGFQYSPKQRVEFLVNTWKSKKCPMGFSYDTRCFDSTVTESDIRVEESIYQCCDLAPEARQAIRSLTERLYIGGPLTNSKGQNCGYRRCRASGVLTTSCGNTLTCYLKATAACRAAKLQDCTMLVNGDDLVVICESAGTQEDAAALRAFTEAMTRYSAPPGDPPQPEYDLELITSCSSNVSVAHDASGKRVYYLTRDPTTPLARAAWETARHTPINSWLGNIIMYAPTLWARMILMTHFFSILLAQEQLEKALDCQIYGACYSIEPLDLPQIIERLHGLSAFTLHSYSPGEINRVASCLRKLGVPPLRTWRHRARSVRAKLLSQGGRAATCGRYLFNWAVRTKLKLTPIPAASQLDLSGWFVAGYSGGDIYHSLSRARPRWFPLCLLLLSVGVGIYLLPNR

In patent US20090060866A1, “PHOSPHADIAZINE HCV […] AND II” (published 2009):

Assays:
[1] = tested on: Huh-7 cells containing HCV Con1 subgenomic replicon (GS4.1 cells); assay: HCV replicon assay (NS4A ELISA); settings: 72 hr, NS4A protein ELISA
[2] = molecular target: HCV genotype 1b polymerase (strain J4) (Hepatitis C virus genotype 1b, UniProt O92972); assay: HCV polymerase assay; settings: 50 nM HCV genotype 1b polymerase, 35° C., 60 min, BrUTP incorporation ELISA
[3] = tested on: Huh-7 cells containing HCV Con1 subgenomic replicon (GS4.1 cells); assay: CC50 reported with the HCV replicon assay; settings: Table 1

SMILES	EC50 [1] [µM]	IC50 [2] [µM]	CC50 [3] [µM]
O=c1c(C2=NP(=O)(O)c3ccccc3N2)c(O)c2cc(F)ccc2n1CCC1CC1	0.1 to 10	0.1 to 10	> 10
CCOP1(=O)N=C(c2c(O)c3cc(F)ccc3n(CCC3CC3)c2=O)Nc2ccccc21 (stereo not drawn)	> 10	> 10	> 10
CS(=O)(=O)Nc1ccc2c(c1)P(=O)(O)N=C(c1c(O)c3cc(F)ccc3n(CCC3CC3)c1=O)N2	0.1 to 10	< 0.1	> 10
COP1(=O)N=C(c2c(O)c3cc(F)ccc3n(CCC3CC3)c2=O)Nc2ccccc21 (stereo not drawn)	0.1 to 10	0.1 to 10	> 10
COP1(=O)N=C(c2c(O)c3cc(F)ccc3n(CCC3CC3)c2=O)Nc2ccc(NS(C)(=O)=O)cc21 (stereo not drawn)	0.1 to 10	< 0.1	> 10
CCOP1(=O)N=C(c2c(O)c3cc(F)ccc3n(CCC3CC3)c2=O)Nc2ccc(NS(C)(=O)=O)cc21 (stereo not drawn)	0.1 to 10	0.1 to 10	> 10
